Pooled drug test results. Numbers come from NIAID ChemDB, via PubChem.

All rows: tests in culture; organism: Mycobacterium tuberculosis

Blank or dashed fields: not listed here. ECn: concentration that inhibits the pathogen or its effect by n%. Inhibition is in % at the dose shown (toxicity tests: loss of growth or viability). Neighbouring rows are from separate reports. a–b is a range or a potency band. For "inactive" no cut-off is given. MIC50, MIC90 and the like: level of inhibition, or share of isolates inhibited. MIC bound: limit read from a one-dose screen.

compound	strain or isolate	changes	method	read-out	tested at	value
CCCCc1cc(-c2ccc(Oc3ccc(Cl)cc3Cl)c(O)c2)no1	H37Rv	-	MTT	MIC	-	>100 µg/mL
CC1(C)NC(N)N=C(N)N1OCCCOc1ccc2ccccc2c1	H37Rv	Overexpressing DHFR	resazurin / fluorescence	MIC90	-	23.4 µM
Clc1ccc(-n2ncc(C(c3ccccc3)n3ccnc3)c2-c2ccccc2)cc1	ATCC 35820 (streptomycin-resistant)	-	-	MIC50	-	≥100 µM
CCC(C)OC(=O)N1CCN(c2nc3nc(N4CCOCC4)ccc3cc2-c2ccccc2)CC1	H37Rv	-	-	MIC	-	>6.25 µg/mL
COC(=O)c1ccc2c(=O)c3ccccc3oc2c1C(=O)OC	H37Rv	-	-	inhibition	2 µg/mL	inactive
CN(C)CC=C(c1ccc(Br)cc1)c1ccc(-c2ccc(Br)cc2)cc1	ALI 552	-	-	MIC	-	17 µg/mL
Cc1ccc2oc(=O)c(-c3ccccc3)nc2c1	H37Rv	-	BACTEC	MIC bound	-	>12.5 µg/mL
Clc1ccccc1-c1c(C(c2ccccc2)n2ccnc2)cnn1-c1ccccc1	ATCC 35820 (streptomycin-resistant)	-	-	MIC50	-	41.1 µM
CCN1CCN(c2cc(-c3ccccc3)c3ccc(Cl)nc3n2)CC1	H37Rv	-	-	inhibition	6.25 µg/mL	68%
Fc1ccccc1-c1c(C(c2ccccc2)n2ccnc2)cnn1-c1ccccc1	ATCC 35837 (ethambutol-resistant)	-	-	MIC90	-	≥100 µM
CCN(CC)CCOCC(=O)Nc1c(C)cccc1Cl.Cl	H37Rv	-	BACTEC	inhibition	12.5 µg/mL	0%
COc1ccc(-c2nc3ccccc3[nH]2)cc1OC	H37Rv	-	radiometric	MIC	-	>500 µM
CO[C@H]1/C=C/O[C@@]2(C)Oc3c(C)c(O)c4c(O)c(c5c(c4c3C2=O)NC2(CCN(CC(C)C)CC2)N=5)=NC(=O)/C(C)=C\C=C\[C@H](C)[C@H](O)[C@@H](C)[C@@H](O)[C@@H](C)[C@H](OC(C)=O)[C@@H]1C	Strain 10	-	-	MIC	-	0.003 µg/mL
CC(CN1CCN(CCOCCO)CC1)CN1c2ccccc2Sc2ccccc21.Cl.Cl	H37Rv	-	BACTEC	inhibition	12.5 µg/mL	23%
CN[C@@H]1[C@H](O[C@H]2[C@H](O[C@H]3[C@H](O)[C@@H](O)[C@H](N=C(N)N)[C@@H](O)[C@@H]3N=C(N)N)O[C@@H](C)[C@]2(O)C=O)O[C@@H](CO)[C@H](O)[C@H]1O	ATCC 35822 (isoniazid-resistant)	-	-	MIC50	-	0.08 µM
CCOC(=O)CN1CCN(CC(=O)NC(c2ccccc2)c2ccc(Cl)cc2)CC1	H37Rv	-	BACTEC	MIC	-	≥12.8 µg/mL
C[Si](C)(C)c1cc(-c2ccc(Oc3ccc(Cl)cc3Cl)c(O)c2)no1	H37Rv	-	MTT	MIC	-	100 µg/mL
CC1(C)c2ccccc2-c2nc3ccccc3c3c2C1OC3=O	H37Rv	-	BACTEC	inhibition	12.5 µg/mL	0%
COC(=O)c1c([N+](=O)[O-])ccc2oc3ccc([N+](=O)[O-])cc3c(=O)c12	H37Rv	-	-	inhibition	8 µg/mL	inactive
CN(C)C/C=C(/c1ccccc1)c1ccc(-c2ccc(Br)cc2)cc1	H37Rv	-	-	MIC	-	10 µg/mL
CCN1CCN(c2cc(-c3ccccc3)c3ccc(OC)nc3n2)CC1	H37Rv	-	-	MIC	-	>6.25 µg/mL
O=C(c1ccc(Oc2ccc(Cl)cc2Cl)c(O)c1)N1CCOCC1	H37Rv	-	MTT	MIC	-	>100 µg/mL
NNC(=O)c1ccncc1	S-5M (susceptible)	-	-	MIC	-	0.025 µg/mL
CC[C@H]1OC(=O)[C@H](C)[C@@H](O[C@H]2C[C@@](C)(OC)[C@@H](O)[C@H](C)O2)[C@H](C)[C@@H](O[C@@H]2O[C@H](C)C[C@H](N(C)C)[C@H]2O)[C@](C)(OC)C[C@@H](C)C(=O)[C@H](C)[C@@H](O)[C@]1(C)O	-	-	-	MIC90	-	>10 µg/mL
CCC(C)OC(=O)N1CCN(c2ccc3cc(-c4ccccc4)c(N4CCCCC4)nc3n2)CC1	H37Rv	-	-	MIC	-	6.25 µg/mL
O=C(O)c1cccc2oc3ccc([N+](=O)[O-])cc3c(=O)c12	H37Rv	-	-	inhibition	32 µg/mL	inactive
Cc1c(Cc2ccccc2Br)cnc2nc(N)nc(N)c12	H37Rv	Overexpressing DHFR	resazurin / fluorescence	MIC90	-	30 µM
CC(=O)Nc1ccc(/C=N/NC(N)=S)cc1F	Isoniazid-resistant	-	-	MBC	-	>62.5 µg/mL
O/C(=C\c1nc2ccccc2nc1/C=C(\O)c1ccc(Cl)cc1)c1ccc(Cl)cc1	-	-	-	inhibition	6.25 µg/mL	9%
COC(=O)c1cc(F)c(NC(C)=O)cc1O	-	-	-	MIC	-	>12.5 µg/mL
CCc1nc2nc(OC)c(F)cn2c1C(=O)NCc1ccc(N2CCN(S(=O)(=O)C(F)(F)F)C=N2)c(F)c1	-	-	GFP	EC50	-	0.12 µM
COc1ccc(-c2nc3ccccc3[nH]2)cc1O	H37Rv	-	radiometric	MIC	-	>500 µM
O/C(=C\c1nc2ccccc2nc1/C=C(\O)c1ccccc1)c1ccccc1	-	-	-	EC50	-	>6.25 µg/mL
COc1cc([C@H]2OC[C@H]3[C@@H]2CO[C@]3(C)c2ccc(OC(C)=O)c(OC)c2)ccc1OC(C)=O	H37Rv	-	BACTEC	MIC bound	-	>12.5 µg/mL
Cc1cc(C)cc(OCCCON2C(N)=NC(N)=NC2(C)C)c1	H37Rv	Overexpressing DHFR	resazurin / fluorescence	MIC90	-	15.6 µM
CC(=O)NC(CSC(=S)N(C)C)C(=O)O	H37Rv	-	BACTEC	MIC	-	≥128 µg/mL
CN(C)C/C=C(\c1ccc(Cl)cc1)c1ccc(-c2ccc(Br)cc2)cc1	H37Ra	-	-	MIC	-	5 µg/mL
Nc1ccc2c(-c3ccccc3)cc(N3CCOCC3)nc2n1	H37Rv	-	-	inhibition	6.25 µg/mL	47%
CCc1nc2c(C)cc(Cl)cn2c1C(=O)NCc1ccc(N2CCN(S(=O)(=O)C(F)(F)F)C=N2)c(F)c1	-	-	GFP	EC50	-	0.95 µM
Fc1ccc(-c2c(C(c3ccccc3)n3ccnc3)cnn2-c2ccccc2)cc1	ATCC 27294	-	-	MIC50	-	≥100 µM
CCc1nc2ccccc2[nH]1	H37Rv	-	radiometric	MIC	-	>500 µM
NC(=O)c1cccc2c(=O)c3ccccc3oc12	H37Rv	-	-	inhibition	8 µg/mL	inactive
COC(=O)c1cc2ccc(O)c(O)c2cn1.Cl	H37Rv	-	BACTEC	inhibition	12.5 µg/mL	9%
c1ccc(-c2c(C(c3ccccc3)n3ccnc3)cnn2-c2ccccc2)cc1	ATCC 35822 (isoniazid-resistant)	-	-	MIC50	-	43.3 µM
Cc1cc(CC(=O)NCc2ccc(Oc3ccc(Cl)cc3O)c(Cl)c2)on1	mc4914	InhA overexpression	MTT	MIC	-	100 µg/mL
c1ccc(-c2cc3ccc(N4CCNCC4)nc3nc2N2CCCCC2)cc1	H37Rv	-	-	MIC	-	>6.25 µg/mL
C=C(C)/C=C/[C@]12C[C@H](C)[C@H]3CC[C@](C)(N)[C@@H](CC[C@H]1C)[C@@H]32	H37Rv	-	-	inhibition	32 µg/mL	100%
S=C(S)Nc1ccc(Cc2ccc(NC(=S)S)cc2)cc1	H37Rv	-	BACTEC	MIC	-	≥12.5 µg/mL
CCC(C)OC(=O)N1CCN(c2nc3nc(Cl)ccc3cc2-c2ccccc2)CC1	H37Rv	-	-	MIC	-	>6.25 µg/mL
CO[C@H]1/C=C/O[C@@]2(C)Oc3c(C)c(O)c4c(O)c(c5c(c4c3C2=O)NC2(CCN(CC(C)C)CC2)N=5)=NC(=O)/C(C)=C\C=C\[C@H](C)[C@H](O)[C@@H](C)[C@@H](O)[C@@H](C)[C@H](OC(C)=O)[C@@H]1C	S-24M (susceptible)	-	-	MIC	-	0.05 µg/mL
COC(=O)C1=C(N2CCCC2)[C@H]2c3ccccc3S[C@@]12C(=O)OC	H37Rv	-	BACTEC	inhibition	12.5 µg/mL	0%
COc1cc(-c2nc3ccccc3[nH]2)ccc1O	H37Rv	-	radiometric	MIC	-	>500 µM
CC1COc2c(N3CCN(C)CC3)c(F)cc3c(=O)c(C(=O)O)cn1c23	ATCC 35828 (pyrazinamide-resistant)	-	-	MIC50	-	0.9 µM
CN(C)CC=C(c1ccccc1)c1ccc(-c2ccc(Br)cc2)cc1	ALI 3236	-	-	MIC	-	20 µg/mL
O=C(/C=C1\N[C@@H]2CCCC[C@H]2N\C1=C/C(=O)c1ccccc1)c1ccccc1	-	-	-	MIC	-	>6.25 µg/mL
CCCCc1cn(Cc2ccc(Oc3ccc(Cl)cc3Cl)c(O)c2)nn1	mc4914	InhA overexpression	MTT	MIC	-	>80 µg/mL
CCc1nc2ccc(Cl)cn2c1C(=O)NCc1ccc(N2CCN(Cc3nc(C(F)(F)F)cs3)C=N2)cc1	-	-	GFP	EC50	-	0.12 µM
Nc1ccc2oc3c(C(=O)O)cccc3c(=O)c2c1	H37Rv	-	-	inhibition	32 µg/mL	inactive
CCOC(=O)c1[nH]c2ccccc2c1C(=O)CC(NC(=O)C(F)(F)F)C(=O)OC	H37Rv	-	BACTEC	MIC bound	-	>12.5 µg/mL
CN(C)C/C=C(\c1ccc(N)cc1)c1ccc(-c2ccc(Br)cc2)cc1	ALI 3236	-	-	MIC	-	19.5 µg/mL
c1ccc2[nH]c(-c3ccc4c(c3)OCO4)nc2c1	H37Rv	-	radiometric	MIC	-	>500 µM
COc1ccc(CCN2C(=O)C(=O)N(c3ccc(Cl)c(Cl)c3)C2=O)cc1OC	H37Rv	-	BACTEC	inhibition	12.5 µg/mL	96%
c1ccc(-c2cc(N3CCN(c4ccccc4)CC3)nc3nc(N4CCN(c5ccccc5)CC4)ccc23)cc1	H37Rv	-	-	MIC	-	>6.25 µg/mL
CC(/C=C1/C(=O)N(C)C(CC(C)C(Cl)(Cl)Cl)C(=O)N1C)C(Cl)(Cl)Cl	H37Rv	-	BACTEC	inhibition	12.5 µg/mL	30%
CCc1nc2c(F)cc(F)cn2c1C(=O)NCc1ccc(N2CCN(S(=O)(=O)C(F)(F)F)C=N2)c(F)c1	-	-	GFP	EC50	-	0.0038 µM
O=C(O)c1ccc2oc3c(C(=O)O)cccc3c(=O)c2c1	H37Rv	-	-	inhibition	32 µg/mL	inactive
COC(=O)[C@@H]1C2CC3c4[nH]c5ccccc5c4CCN3CC2CC[C@@H]1OS(=O)(=O)O	H37Rv	-	-	MIC bound	-	>6.25 µg/mL
CC1(C)N=C(N)N=C(N)N1OCCCOc1cc(Cl)c(Cl)cc1Cl	H37Rv	Overexpressing DHFR	resazurin / fluorescence	MIC90	-	15–30 µM
Clc1ccc(-c2nc3ccccc3[nH]2)c(Cl)c1	H37Rv	-	radiometric	MIC	-	>500 µM
NC(=O)C(=O)c1c[nH]c2ccccc12	H37Rv	-	BACTEC	inhibition	6.25 µg/mL	1%
COc1ccc2c(-c3ccccc3)cc(N3CCN(c4ccccc4)CC3)nc2n1	H37Rv	-	-	MIC	-	>6.25 µg/mL
O=C(NCc1cnc(N2CCN(S(=O)(=O)C(F)(F)F)C=N2)c(F)c1)c1c(C(F)(F)F)nc2ncc(Cl)cn12	-	-	GFP	EC50	-	0.5 µM
O=c1c(Cl)c(Cl)c(=O)c2sc3cc(Cl)ccc3[nH]c1=2	H37Rv	-	BACTEC	inhibition	12.5 µg/mL	84%
COC(=O)c1cccc2c(=O)c3ccccc3oc12	H37Rv	-	-	inhibition	32 µg/mL	inactive
Clc1ccc(-c2c(C(c3ccccc3)n3ccnc3)cnn2-c2ccc(Cl)cc2)cc1	ATCC 35822 (isoniazid-resistant)	-	-	MIC90	-	≥100 µM
CN(C)C/C=C(/c1ccc(Br)cc1)c1ccc(-c2ccc(Br)cc2)cc1	ALI 552	-	-	MIC	-	17 µg/mL
COC(=O)CCc1nc(C(=O)OC)c(CCC(=O)OC)nc1C(=O)OC	H37Rv	-	BACTEC	MIC	-	≥12.5 µg/mL
CCc1cc(C(C)=O)ccc1OCCCON1C(N)=NC(N)=NC1(C)C	H37Rv	-	resazurin / fluorescence	MIC90	-	0.5 µM
O=C1CC(N2C(=O)C3CCCCC3C2=O)C(=O)N1	H37Rv	-	BACTEC	MIC bound	-	>12.5 µg/mL
COc1ccc2nc(-c3ccc(O)c(OC)c3)[nH]c2c1	H37Rv	-	radiometric	MIC	-	>500 µM
Cn1ncc2c(c1=O)Nc1ccccc1S2(=O)=O	H37Rv	-	BACTEC	inhibition	12.5 µg/mL	7%
O=C(O)c1cc([N+](=O)[O-])cc2c(=O)c3cc([N+](=O)[O-])ccc3oc12	H37Rv	-	-	inhibition	32 µg/mL	inactive
Cc1cc(=O)[nH]o1	H37Rv	-	BACTEC	MIC bound	-	>12.5 µg/mL
CCn1cc(C(=O)O)c(=O)c2cc(F)c(N3CCNCC3)nc21	-	-	-	MIC50	-	3 µg/mL

Repeating the final 10 entries:

compound	strain or isolate	changes	method	read-out	tested at	value
Clc1ccc(-c2c(C(c3ccccc3)n3ccnc3)cnn2-c2ccc(Cl)cc2)cc1	ATCC 35822 (isoniazid-resistant)	-	-	MIC90	-	≥100 µM
CN(C)C/C=C(/c1ccc(Br)cc1)c1ccc(-c2ccc(Br)cc2)cc1	ALI 552	-	-	MIC	-	17 µg/mL
COC(=O)CCc1nc(C(=O)OC)c(CCC(=O)OC)nc1C(=O)OC	H37Rv	-	BACTEC	MIC	-	≥12.5 µg/mL
CCc1cc(C(C)=O)ccc1OCCCON1C(N)=NC(N)=NC1(C)C	H37Rv	-	resazurin / fluorescence	MIC90	-	0.5 µM
O=C1CC(N2C(=O)C3CCCCC3C2=O)C(=O)N1	H37Rv	-	BACTEC	MIC bound	-	>12.5 µg/mL
COc1ccc2nc(-c3ccc(O)c(OC)c3)[nH]c2c1	H37Rv	-	radiometric	MIC	-	>500 µM
Cn1ncc2c(c1=O)Nc1ccccc1S2(=O)=O	H37Rv	-	BACTEC	inhibition	12.5 µg/mL	7%
O=C(O)c1cc([N+](=O)[O-])cc2c(=O)c3cc([N+](=O)[O-])ccc3oc12	H37Rv	-	-	inhibition	32 µg/mL	inactive
Cc1cc(=O)[nH]o1	H37Rv	-	BACTEC	MIC bound	-	>12.5 µg/mL
CCn1cc(C(=O)O)c(=O)c2cc(F)c(N3CCNCC3)nc21	-	-	-	MIC50	-	3 µg/mL